Amino acid sequences for entries named in this document (tags omitted). Residues count along the entry.
UniProt P06276, 29-602 limits assumed: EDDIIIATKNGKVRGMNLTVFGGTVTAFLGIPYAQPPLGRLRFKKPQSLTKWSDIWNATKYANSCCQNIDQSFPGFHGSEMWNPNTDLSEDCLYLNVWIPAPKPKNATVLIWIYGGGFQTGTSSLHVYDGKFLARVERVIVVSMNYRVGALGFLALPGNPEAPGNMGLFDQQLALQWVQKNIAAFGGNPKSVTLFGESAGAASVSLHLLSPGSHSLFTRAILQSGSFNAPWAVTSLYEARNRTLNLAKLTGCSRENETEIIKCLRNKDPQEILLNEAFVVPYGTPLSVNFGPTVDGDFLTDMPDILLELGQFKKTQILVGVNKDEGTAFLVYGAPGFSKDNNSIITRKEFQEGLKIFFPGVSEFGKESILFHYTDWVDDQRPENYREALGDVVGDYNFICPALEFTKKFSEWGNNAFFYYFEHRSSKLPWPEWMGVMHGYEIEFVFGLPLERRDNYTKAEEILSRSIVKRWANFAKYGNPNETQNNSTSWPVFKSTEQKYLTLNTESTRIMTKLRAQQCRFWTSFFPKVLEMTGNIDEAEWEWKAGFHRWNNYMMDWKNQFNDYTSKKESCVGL

In publication PMC7822067, “Pyridinium-2-carbaldoximes with quinolinium carboxamide moiety are simultaneous reactivators of acetylcholinesterase and butyrylcholinesterase inhibited by nerve agent surrogates” (2021):

What was measured:
[1] = target: hrBChE inhibited by POX (Homo sapiens, UniProt P06276); experiment: Reactivation screening of POX-inhibited hrBChE; settings: 15 min
[2] = target: NEMP-hrBChE (Homo sapiens, UniProt P06276); experiment: Reactivation kinetics of NEMP-hrBChE; settings: for Kd: read-out: KD (phosphylated enzyme-oxime dissociation constant)
[3] = target: NIMP-hrBChE (Homo sapiens, UniProt P06276); experiment: Reactivation kinetics of NIMP-hrBChE; settings: read-out: KD (phosphylated enzyme-oxime dissociation constant)

## NC(=O)c1ccc2ccc[n+](CCCCC[n+]3ccccc3C=NO)c2c1.[Br-].[Br-]
[1]; oxime 100 µM
  hrBChE reactivation (%) POX ± SD: 4.4 ± 1.0%

## NC(=O)c1cc[n+](CCCCC[n+]2ccccc2C=NO)c2ccccc12.[Br-].[Br-]
[2]
  kr2 (second-order reactivation rate constant, kr2=kr/KD): 11.21 mM^–1 min^–1
  kr (first-order reactivation rate constant): 0.175 min^–1
[1]; oxime 100 µM
  hrBChE reactivation (%) POX ± SD: 7.5 ± 1.0%

## NC(=O)c1cccc2c1ccc[n+]2CCCCC[n+]1ccccc1C=NO.[Br-].[Br-]
[1]; oxime 100 µM
  hrBChE reactivation (%) POX ± SD: 1.0 ± 0.6%

## NC(=O)c1cc[n+](CCCCC[n+]2ccccc2C=NO)c2ccccc12
[2]
  Kd: 15.6 µM
[3]
  Kd: 12.8 µM

## NC(=O)c1cc2ccccc2[n+](CCCCC[n+]2ccccc2C=NO)c1.[Br-].[Br-]
[1]; oxime 10 µM
  hrBChE reactivation (%) POX ± SD: 1.0 ± 0.3%
[1]; oxime 100 µM
  hrBChE reactivation (%) POX ± SD: 5.0 ± 0.04%

## NC(=O)c1ccc2c(ccc[n+]2CCCCC[n+]2ccccc2C=NO)c1.[Br-].[Br-]
[2]
  kr2 (second-order reactivation rate constant, kr2=kr/KD): 2.76 mM^–1 min^–1
  kr (first-order reactivation rate constant): 0.078 min^–1

## NC(=O)c1ccc2c(ccc[n+]2CCCCC[n+]2ccccc2C=NO)c1
[2]
  Kd: 28.1 µM
[3]
  Kd: 5.31 µM
